Results of unrelated studies side by side (data: NIAID ChemDB).

All rows: tests in culture; organism: Herpes simplex virus 1; cell line: E6SM; read-out: EC50

Neighbouring rows are from separate reports.

structure | strain | read by | result
Nc1ncnc2c1ncn2[C@H]1OC[C@@H](CO)C1O | KOS | cytopathic effect | >80 µg/mL
OC[C@H]1O[C@@H](c2cc(Br)c(F)cc2F)C[C@@H]1O | F | cytopathic effect | >400 µg/mL
Nc1ncnc2c1ncn2C[C@@H](CO)OCP(=O)(O)O | KOS F McIntyre | cytopathic effect | 0.63 µM
Cc1cccn2c(C3SCCS3)cnc12 | KOS | - | >1000 µM
Nc1ccn(CC[C@H](O)CCO)c(=O)n1 | B2006 (TK-) | cytopathic effect | >400 µg/mL
Nc1nc(Cl)c2ccn([C@H]3CO[C@@H](CO)C3)c2n1 | B2006 (TK-) | cytopathic effect | >400 µg/mL
Nc1nc2c(ncn2[C@@H]2C=C[C@H](CO)[C@@H](O)C2)c(=O)[nH]1 | KOS TK- acyclovir-resistant | cytopathic effect | 0.38 µg/mL
OC[C@H]1O[C@@H](c2cc(C(F)(F)F)c(F)cc2F)C[C@@H]1O | McIntyre | cytopathic effect | >400 µg/mL
Nc1nc(N)c2ncn(C[C@@H](CF)OCP(=O)(O)O)c2n1 | KOS F McIntyre | cytopathic effect | >600 µM
O=C(C1CCCCC1)N(O)c1ccc(Cl)cc1 | KOS ACV-resistant TK- | cytopathic effect | >80 µg/mL
Cc1cccn2c(C3OCCS3)cnc12 | B2006 (TK-) | - | >1000 µM
Nc1ccn([C@@H]2OC[C@H](CO)[C@H]2O)c(=O)n1 | KOS | cytopathic effect | 240 µg/mL
CC1(C)[C@@H](CCO)C[C@H]1n1cnc2c(=O)[nH]cnc21 | TK-/B2006 | cytopathic effect | >400 µg/mL
C#C[C@H](O)C1=C[C@@H](n2cnc3c(N)ncnc32)[C@H](O)[C@@H]1O | KOS | cytopathic effect | >100 µg/mL
N#Cc1cncc([C@H]2O[C@H](CO)[C@H](O)[C@@H]2O)c1 | KOS | cytopathic effect | ≥100 µg/mL
OC[C@H]1O[C@H](c2cc(F)c(F)cc2F)C[C@@H]1O | KOS | cytopathic effect | >400 µg/mL
NC(=S)c1cncc([C@H]2O[C@H](CO)[C@@H](O)[C@@H]2O)c1 | KOS | cytopathic effect | ≥100 µg/mL
C[C@@H](Cn1cnc2c(N)nc(N)nc21)OCP(=O)(O)O | KOS F McIntyre | cytopathic effect | 993 µM
Nc1nc2c(ncn2[C@H]2CO[C@@H](CO)C2)c(=O)[nH]1 | B2006 (TK-) | cytopathic effect | 250 µg/mL
Cc1cccn2c(C3OCCO3)cnc12 | B2006 (TK-) | - | >1000 µM
Nc1nc2c(ncn2[C@H]2OC[C@@H](CO)C2O)c(=O)[nH]1 | KOS | cytopathic effect | 1.9 µg/mL
COC(CI)c1cc([C@H]2C[C@H](O)[C@@H](CO)O2)c(F)cc1F | TK-deficient acyclovir-resistant | cytopathic effect | >80 µg/mL
CC1(C)[C@@H](CCO)C[C@H]1n1nnc2c(N)ncnc21 | TK-/VMW 1837 | cytopathic effect | 150 µg/mL
CC(Sc1ncnc2c1cnn2COCC(O)CO)C(N)=O | B2006 (TK-) | cytopathic effect | >400 µg/mL
Cc1cn([C@@H]2CO[C@H](CO)[C@@H](O)C2)c(=O)[nH]c1=O | KOS | cytopathic effect | >20 µg/mL
CO[C@H](CO)[C@@H](O)CCn1cnc2c(N)ncnc21 | VMW1837 (TK-) | cytopathic effect | >400 µg/mL
CC1(CO)CCC(Cn2nnc3c(=O)[nH]cnc32)C1(C)C | TK-/TK+ (VMW 1837) | cytopathic effect | >200 µg/mL
Nc1ncnc2c1ncn2[C@H]1CO[C@H](CO)[C@@H](O)C1 | TK-/TK+ (VMW 1837) | cytopathic effect | >20 µg/mL
Nc1ncnc2c1ncn2C[C@@H](CF)OCP(=O)(O)O | KOS F McIntyre | cytopathic effect | 567 µM
NC(=O)CSc1ncnc2c1cnn2COCCO | KOS | cytopathic effect | >400 µg/mL
CC1(CO)CCC(Cc2nc3ncnc(N)c3[nH]2)C1(C)C | TK-/B2006 | cytopathic effect | >200 µg/mL
Cc1cc([C@@H]2C[C@H](O)[C@@H](CO)O2)c(F)cc1F | VMW 1837 | cytopathic effect | >400 µg/mL
Cc1cn(CC[C@H](O)CCO)c(=O)[nH]c1=O | KOS | cytopathic effect | >400 µg/mL
CC1(CO)CCC(Cn2nnc3c(N)ncnc32)C1(C)C | KOS | cytopathic effect | >100 µg/mL
CC[C@H](O)C1=C[C@@H](n2cnc3c(N)ncnc32)[C@H](O)[C@@H]1O | KOS | cytopathic effect | >200 µg/mL
NC(=O)CSc1ncnc2c1cnn2CCCCO | KOS | cytopathic effect | >400 µg/mL
OC[C@H]1O[C@@H](c2ccc(F)cc2F)C[C@@H]1O | KOS | cytopathic effect | >400 µg/mL
OC[C@H]1O[C@@H](c2cc(C(O)CBr)c(F)cc2F)C[C@@H]1O | VMW 1837 | cytopathic effect | >3.2 µg/mL
CCC(Sc1ncnc2c1cnn2COCC(O)CO)C(N)=O | KOS | cytopathic effect | >400 µg/mL
NC(=O)c1cncc([C@H]2O[C@H](CO)[C@H](O)[C@@H]2O)c1 | KOS | cytopathic effect | ≥100 µg/mL
Cc1cc([C@@H]2C[C@H](O)[C@@H](CO)O2)c(Cl)cc1F | KOS/ACV-R | cytopathic effect | >400 µg/mL
C[C@@H](Cn1cnc2c(=O)[nH]c(N)nc21)OCP(=O)(O)O | KOS F McIntyre | cytopathic effect | 148 µM
CC1(C)[C@@H](CCO)C[C@H]1n1nnc2c(Cl)nc(N)nc21 | TK-/B2006 | cytopathic effect | 20 µg/mL
Nc1nc2c(ncn2C[C@H](CO)OCP(=O)(O)O)c(=O)[nH]1 | KOS F McIntyre | cytopathic effect | 0.1 µM
Cc1cc([C@H]2C[C@H](O)[C@@H](CO)O2)c(F)cc1Cl | F | cytopathic effect | >400 µg/mL
O=C(CC1CCCCC1)N(O)c1ccccc1 | KOS ACV-resistant TK- | cytopathic effect | >80 µg/mL
CO[C@H](CO)[C@@H](O)CCn1ccc(N)nc1=O | KOS | cytopathic effect | >400 µg/mL
N#Cc1cncc([C@@H]2O[C@H](CO)[C@H](O)[C@@H]2O)c1 | KOS | cytopathic effect | ≥100 µg/mL
Nc1ncc2ncn(C[C@H](CF)OCP(=O)(O)O)c2n1 | KOS F McIntyre | cytopathic effect | >600 µM
CC1(C)[C@@H](CCO)C[C@H]1n1nnc2c(N)nc(N)nc21 | KOS | cytopathic effect | >400 µg/mL

A second listing of 4 rows from above:

structure,strain,read by,result
Nc1ncnc2c1ncn2[C@H]1CO[C@H](CO)[C@@H](O)C1,TK-/TK+ (VMW 1837),cytopathic effect,>20 µg/mL
C[C@@H](Cn1cnc2c(=O)[nH]c(N)nc21)OCP(=O)(O)O,KOS F McIntyre,cytopathic effect,148 µM
NC(=S)c1cncc([C@H]2O[C@H](CO)[C@@H](O)[C@@H]2O)c1,KOS,cytopathic effect,≥100 µg/mL
OC[C@H]1O[C@@H](c2cc(C(O)CBr)c(F)cc2F)C[C@@H]1O,VMW 1837,cytopathic effect,>3.2 µg/mL

Blank or dashed fields: not listed here. ECn: concentration that inhibits the pathogen or its effect by n%.